Reference: PubChem BioAssay AID624099 (ICCB-Longwood, 2012)

Test: 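Knock-downs relieving repression by E2 of an HPV18 LCR luciferase reporter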 (primary screen)
Cells: human C33A cervical carcinoma cells (HPV-negative) stably expressing BPV1 E2 and an HPV18 LCR luciferase reporter
Reagents: siRNA pool against human genes, 40 nM
Time to read-out: 72 h
Measured: 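HPV18 LCR reporter light per well, converted to plate-wise z-scores that exclude control wells, and averaged over triplicate plates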
Reading the numbers: mean z-score and z-score: higher = stronger reporter signal, weaker E2 silencing
Hit rule: 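Hit if mean z-score reaches 2 and two or more of three replicate z-scores also reach 2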
In all, the deposit lists about 21,000 reagents; this is an unselected part. Of all reagents, 497 (2.4%) got an active call. 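Higher z means weaker E2 silencing; only reporter increases were scored, and knock-downs that hurt cell survival may mask genuine repressor factors.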 Entries without a mark were called inactive.

The opening 3 records, to show the layout:
gene symbol | mean z-score | z-score, replicate A | z-score, replicate B | z-score, replicate C
FREM2 | 0.47 | 0.42 | 0.7 | 0.29
MLH1 | 1.44 | 1.34 | 1.35 | 1.64
DCAF11 | -0.03 | -0.31 | 0.02 | 0.19

The list itself, repeating the preview:
gene symbol | mean z-score | z-score, replicate A | z-score, replicate B | z-score, replicate C
FREM2 | 0.47 | 0.42 | 0.7 | 0.29
MLH1 | 1.44 | 1.34 | 1.35 | 1.64
DCAF11 | -0.03 | -0.31 | 0.02 | 0.19
RGN | 0.34 | 0.24 | 0.36 | 0.43
LOC390577 (retired record) | 0.25 | 0.36 | 0.01 | 0.38
TRAPPC2 | 0.82 | 0.73 | 0.77 | 0.96
TONSL | -0.35 | -0.25 | -0.31 | -0.49
IDI1 | -0.44 | -0.45 | -0.29 | -0.59
SMARCAL1 | -0.1 | 0.2 | -0.33 | -0.18
TCL1A | -0.35 | -0.14 | -0.27 | -0.63
PBK | 1.68 | 2.35 | 1.13 | 1.56
TWIST2 | 0.93 | 1.21 | 0.82 | 0.75
CLEC2A | 0.2 | 0.62 | -0.35 | 0.33
ITGAE | -0.79 | -0.76 | -0.77 | -0.85
CYP7B1 | 1.28 | 1.1 | 1.28 | 1.46
TLE6 | 0.28 | 0.33 | 0.02 | 0.49
GPHRB | 0.13 | 0.32 | 0.08 | 0
TMEM245 | 0.17 | -0.05 | 0.24 | 0.33
C14orf119 | 0.91 | 0.12 | 1.15 | 1.46
RPSAP48 | -0.63 | -0.19 | -0.91 | -0.8
ELSPBP1 | -0.19 | -0.37 | -0.33 | 0.12
HSCB | -0.34 | -0.08 | -0.65 | -0.31
THSD7B | -0.51 | -0.64 | -0.71 | -0.18
ADAM9 | -0.74 | -1.65 | -0.71 | 0.15
ARID5B | -0.11 | -0.06 | -0.19 | -0.09
CNIH2 | -1.02 | -0.49 | -1.5 | -1.07
GAB3 | -0.82 | -0.71 | -1.05 | -0.71
SMARCD3 | -0.58 | -0.79 | -0.37 | -0.58
ELF4 | -0.81 | -0.77 | -0.67 | -0.97
ZMYM4 | 0.9 | 1.11 | 0.76 | 0.82
CYSTM1 | 0.4 | 0.7 | 0.25 | 0.24
ARHGAP6 | -1.18 | -1.16 | -1.26 | -1.11
TAS2R10 | 1.05 | 0.93 | 1 | 1.22
IARS2 | 0.76 | 0.72 | 0.97 | 0.58
TPRKB | 0.53 | 0.87 | 0.27 | 0.44
OR10A7 | -0.83 | -1.45 | -0.56 | -0.46
SEPHS1P4 | -0.07 | -0.21 | 0.02 | -0.01
DESI2 | 0.39 | -0.27 | 0.56 | 0.87
USHBP1 | 0.92 | 0.93 | 0.81 | 1.02
POLL | -0.36 | -0.24 | -0.26 | -0.58
LOC338731 (retired record) | 0.46 | 0.54 | 0.26 | 0.59
GPX3 | -0.75 | -0.97 | -0.42 | -0.85
PAFAH1B1 | -0.04 | 0.27 | -0.06 | -0.33
RNF139 | 1.55 | 1.54 | 1.63 | 1.48
VMA12 | -0.94 | -0.96 | -0.84 | -1.01
FES | -1.22 | -0.93 | -1.17 | -1.55
GRPR | 0.5 | 0.59 | 0.29 | 0.62
CRMP1 | 1.14 | 0.97 | 1.24 | 1.22
RBBP9 | 0.71 | 0.98 | 0.84 | 0.32
ZBTB14 | -0.08 | 0.05 | -0.23 | -0.07
BOD1L2 | 0.36 | 0.3 | 0.27 | 0.53
P4HA3 | -0.73 | -1.18 | -0.51 | -0.51
NOX4 | 2.37 (active) | 2.89 | 2.16 | 2.05
PPP1R13L | 0.18 | 0.22 | 0.29 | 0.03
GUF1 | 0.73 | 0.59 | 1.04 | 0.56
ACR | 0.26 | 0.44 | 0.37 | -0.03
LOC107987397 | 0.32 | 0.68 | 0.01 | 0.28
